Data from article PMC7822067, “Pyridinium-2-carbaldoximes with quinolinium carboxamide moiety are simultaneous reactivators of acetylcholinesterase and butyrylcholinesterase inhibited by nerve agent surrogates” (2021).

By UniProt entry, the sequences of proteins in these tests, tags left out. Residues count along the entry.
UniProt P06276, 29-602 limits assumed: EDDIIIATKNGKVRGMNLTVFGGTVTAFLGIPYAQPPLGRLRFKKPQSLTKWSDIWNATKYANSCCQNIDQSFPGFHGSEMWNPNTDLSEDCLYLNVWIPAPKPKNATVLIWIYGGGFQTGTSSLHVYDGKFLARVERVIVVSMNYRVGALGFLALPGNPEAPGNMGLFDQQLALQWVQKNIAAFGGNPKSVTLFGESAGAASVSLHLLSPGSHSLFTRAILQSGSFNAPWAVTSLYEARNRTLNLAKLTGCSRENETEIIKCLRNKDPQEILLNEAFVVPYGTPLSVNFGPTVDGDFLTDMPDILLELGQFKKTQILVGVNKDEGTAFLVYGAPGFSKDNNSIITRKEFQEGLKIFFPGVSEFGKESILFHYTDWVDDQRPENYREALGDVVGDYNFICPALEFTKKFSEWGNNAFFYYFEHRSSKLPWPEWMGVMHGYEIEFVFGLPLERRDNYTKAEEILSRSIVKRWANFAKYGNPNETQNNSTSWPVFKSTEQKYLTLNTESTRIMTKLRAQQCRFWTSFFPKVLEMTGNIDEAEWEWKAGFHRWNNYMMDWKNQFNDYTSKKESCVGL

Experiments:
[1] = target: hrBChE inhibited by POX (Homo sapiens, UniProt P06276); assay: Reactivation screening of POX-inhibited hrBChE; details: 15 min
[2] = target: NIMP-hrBChE (Homo sapiens, UniProt P06276); assay: Reactivation kinetics of NIMP-hrBChE; details: read-out: KD (phosphylated enzyme-oxime dissociation constant)
[3] = target: NEMP-hrBChE (Homo sapiens, UniProt P06276); assay: Reactivation kinetics of NEMP-hrBChE; details: for Kd: read-out: KD (phosphylated enzyme-oxime dissociation constant)

Question: How did the “hrBChE reactivation (%) POX ± SD” value ([1]; oxime 100 µM) turn out when NC(=O)c1cccc2c1ccc[n+]2CCCCC[n+]1ccccc1C=NO.[Br-].[Br-] was run?
Answer: 1.0 ± 0.6%

Question: What does the source list for NC(=O)c1cc[n+](CCCCC[n+]2ccccc2C=NO)c2ccccc12?
Answer: Kd [2]: 12.8 µM; Kd [3]: 15.6 µM

Question: What does the source list for NC(=O)c1cc[n+](CCCCC[n+]2ccccc2C=NO)c2ccccc12.[Br-].[Br-]?
Answer: kr2 (second-order reactivation rate constant, kr2=kr/KD) [3]: 11.21 mM^–1 min^–1; kr (first-order reactivation rate constant) [3]: 0.175 min^–1; hrBChE reactivation (%) POX ± SD ([1]; oxime 100 µM): 7.5 ± 1.0%

Question: For NC(=O)c1ccc2c(ccc[n+]2CCCCC[n+]2ccccc2C=NO)c1.[Br-].[Br-], which “kr2 (second-order reactivation rate constant, kr2=kr/KD)” value [3] is on record?
Answer: 2.76 mM^–1 min^–1

Question: What about the “kr (first-order reactivation rate constant)” value [3] of the same molecule?
Answer: 0.078 min^–1

Question: Which “hrBChE reactivation (%) POX ± SD” value ([1]; oxime 100 µM) does the source give for NC(=O)c1ccc2ccc[n+](CCCCC[n+]3ccccc3C=NO)c2c1.[Br-].[Br-] here?
Answer: 4.4 ± 1.0%

Question: What does the source list for NC(=O)c1cc2ccccc2[n+](CCCCC[n+]2ccccc2C=NO)c1.[Br-].[Br-]?
Answer: hrBChE reactivation (%) POX ± SD ([1]; oxime 10 µM): 1.0 ± 0.3%; hrBChE reactivation (%) POX ± SD ([1]; oxime 100 µM): 5.0 ± 0.04%

Question: For NC(=O)c1ccc2c(ccc[n+]2CCCCC[n+]2ccccc2C=NO)c1, which Kd [2] is on record?
Answer: 5.31 µM

Question: And the Kd [3]?
Answer: 28.1 µM
